System: HIVIIIB
Assay: CMX157 and tenofovir levels in HIVIIIB lysates
Settings: HIV + 500 nM compound

SMILES | CMX157 level in HIVIIIB lysate | Tenofovir level in HIVIIIB lysate
CCCCCCCCCCCCCCCCOCCCOP(=O)(O)CO[C@H](C)Cn1cnc2c(N)ncnc21 [CMX157, 3-(hexadecyloxy)propyl hydrogen ((R)-1-(6-amino-9H-purin 9-yl)propan-2-yloxy)methylphosphonate] | 5406 pmol | 0.3 pmol
C[C@H](Cn1cnc2c(N)ncnc21)OCP(=O)(O)O [Tenofovir, (R)-9-(2-phosphonylmethoxypropyl)adenine, reference compound] | – | 17 pmol
